Substitutions are numbered along the chain they refer to. Human monoclonal antibodies against the spike receptor-binding domain (heavy:light variable regions). IC50 against pseudoviruses bearing the spike of naturally observed variants; lower = stronger; >10 µg/ml means not reached at the top dose. No active / inactive call. The stated detection limit is 0.0005 µg/ml; values near or below 0.001 µg/ml lie at the floor of the assay.
B1: BD57-0121 (protein)
chain 1: EVQLVESGGGLVQPGGSLRLSCAASGFTFSNYEVNWVRQAPGKGLEWVSYIGTRGSAIYYADSVKGRFTISRDNAKNSLYLQMNSLRAEDTAVYYCASHRRYYFGPYAGLNYGMDVWGQGTTVTVSS
chain 2: DIQMTQSPSSVSASVGDRVTITCRASQGISTWLAWYQQKPGKAPKLMIYDASSLQSGVPSRFSGSGSGTDFTLTISSLQPEDFATYYCQQADSFPLTFGGGTKVEIK
B2: BD57-0126 (protein)
chain 1: QVQLVQSGAEVKKPGSSVKVSCKASGGTFSSSVINWVRQAPGQGLEWMGRIIPTLRIANYAQNFQARVTITADKSTNTAYMELSSLTSEDTAMYYCATEGNHYDSSGLNSEYFQKWGQGTLVSVSS
chain 2: QSVLTQPPSVSGAPGQRVTISCTGSNSNIGAGYDVHWYQQFPRIAPKLIIYGNSNRPSGVPDRFSGSKSGTSASLAITGLQAEDEADYYCQSYDSSLIGVVFGGGTKLTVL
B3: BD57-0128 (protein)
chain 1: QVQLLQSGTEVKKPGSSVKVSCKASGGTFNSYSITWVRQSPGLGLEWMGRIIPILRIPDYAQKFQGRVTITADKSTSTAYMELSSLRSEDTAIYYCATAAGYTNYGANYYFDYWGQGTLVTVSS
chain 2: B2 chain 2 with S25G, N26S, R43G, I44T, K47R, I49L, G52A, S54T, I98S, V100S
B4: BD57-0129 (protein)
chain 1: EVHLVQSGGNLVQPGGSLRLSCVASEITVSSNYMSWVRQAPGKGLEWVSVIYSGGSTFYADSVKGRFIISRDNSKNTLYLEMNNVRVEDTAVYYCARDLGPLGGNDYWGQGTLVTVSS
chain 2: EIVMTQSPATLSVSPGERATLSCRASQSVSNNLAWYQQKPGQAPRLLIYGASTRATGIPARFSGSGSETEFTLNISSLQSEDFAVYYCQQYITWPPMYTFGQGTKLEIK
B5: BD57-0133 (protein)
chain 1: QVHLQQWGAGLLKPSESLSLTCAVDGGSFNSYSWSWIRQPPGKGLEWIGDINRRGSTSYNPSLKSRLTISVDSSKNHCSLNLNAVTAADTAVYFCARGRYYLDSSDFGSNWFDPWGQGTLVTVSS
chain 2: QSMLTQPPSVSGAPGQRVTISCTGSSSNIGAGYDVHWYQLLPGRAPKLLIHGNSNRPSGVPDRFSGSKSGTSASLAITGLQAEDEADYYCQSYDTSLSVYVFGPGTKVTVL
B6: BD57-0136 (protein)
chain 1: QVTLKESGPVLVKPTETLTLTCTVSGLSLSNMRMGVSWIRQPPGKALEWLAHSSASDDKSYSPSLKTRLTISRGSSKSQVVLTMTNMDPMDTGTYYCAGTFSYFWYDYWGQGTLVTVSS
chain 2: SYVLTQPPSVSLAPGKTARITCETNNIGSKSVHWYRQRPGQAPVLVIYYNNDRPSGIPDRFSGSNSGNTATLTISRVEAGDEADYYCQVWDTSTDHVIFGGGTKLTVL

The binders below were run against SARS-CoV-2 Omicron BA.1 spike pseudovirus (assay: pseudovirus neutralization IC50; higher = weaker neutralization).
Description: (§1)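 Single-round VSV luciferase pseudovirus mixed with antibody dilutions for 1 h and put on Huh-7 cells for about a day; IC50 from the dose curve.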
For B1, the “pseudovirus neutralization IC50” value was greater than 10 µg/mL.
For B2, the “pseudovirus neutralization IC50” value was 0.306 µg/mL.
In the case of B3, the “pseudovirus neutralization IC50” value is reported as 0.712 µg/mL.
B4 was tested, and the “pseudovirus neutralization IC50” value was 0.00276 µg/mL.
In the case of B5, the “pseudovirus neutralization IC50” value is reported as 5.64 µg/mL.
In the case of B6, the “pseudovirus neutralization IC50” value is reported as 0.0712 µg/mL.

What follows are binders tested against SARS-CoV-2 Omicron BA.2 spike pseudovirus in the same assay as above.
Description: as §1
In the case of B1, the “pseudovirus neutralization IC50” value is reported as greater than 10 µg/mL.
B2 was tested, and the “pseudovirus neutralization IC50” value was 0.285 µg/mL.
In the case of B3, the “pseudovirus neutralization IC50” value is reported as 0.519 µg/mL.
B4 was tested, and the “pseudovirus neutralization IC50” value was 0.0029 µg/mL.
B5 was tested, and the “pseudovirus neutralization IC50” value was 3.45 µg/mL.
For B6, the “pseudovirus neutralization IC50” value was 0.0735 µg/mL.

The binders below were run against SARS-CoV-2 Omicron BA.2.75 spike pseudovirus in the same assay as above.
Description: as §1
B1 was tested, and the “pseudovirus neutralization IC50” value was greater than 10 µg/mL.
For B2, the “pseudovirus neutralization IC50” value was 0.155 µg/mL.
For B3, the “pseudovirus neutralization IC50” value was 0.83 µg/mL.
With B4 the “pseudovirus neutralization IC50” value was 0.0034 µg/mL.
In the case of B5, the “pseudovirus neutralization IC50” value is reported as 7.21 µg/mL.
B6 was tested, and the “pseudovirus neutralization IC50” value was 0.0924 µg/mL.

These binders were tested against SARS-CoV-2 Omicron BA.5 spike pseudovirus in the same assay as above.
Description: as §1
For B1, the “pseudovirus neutralization IC50” value was greater than 10 µg/mL.
For B2, the “pseudovirus neutralization IC50” value was 2.38 µg/mL.
In the case of B3, the “pseudovirus neutralization IC50” value is reported as 3.35 µg/mL.
B4 was tested, and the “pseudovirus neutralization IC50” value was 0.00289 µg/mL.
B5 was tested, and the “pseudovirus neutralization IC50” value was 3.26 µg/mL.
For B6, the “pseudovirus neutralization IC50” value was 0.225 µg/mL.

Each binder was assayed against SARS-CoV-2 Omicron BQ.1.1 spike pseudovirus in the same assay as above.
Description: as §1
B1 was tested, and the “pseudovirus neutralization IC50” value was greater than 10 µg/mL.
B2 was tested, and the “pseudovirus neutralization IC50” value was greater than 10 µg/mL.
In the case of B3, the “pseudovirus neutralization IC50” value is reported as greater than 10 µg/mL.
For B4, the “pseudovirus neutralization IC50” value was 0.00751 µg/mL.
For B5, the “pseudovirus neutralization IC50” value was greater than 10 µg/mL.
In the case of B6, the “pseudovirus neutralization IC50” value is reported as greater than 10 µg/mL.

The binders below were run against SARS-CoV-2 Omicron XBB spike pseudovirus in the same assay as above.
Description: as §1
In the case of B1, the “pseudovirus neutralization IC50” value is reported as greater than 10 µg/mL.
B2 was tested, and the “pseudovirus neutralization IC50” value was greater than 10 µg/mL.
With B3 the “pseudovirus neutralization IC50” value was greater than 10 µg/mL.
In the case of B4, the “pseudovirus neutralization IC50” value is reported as 0.0064 µg/mL.
With B5 the “pseudovirus neutralization IC50” value was greater than 10 µg/mL.
With B6 the “pseudovirus neutralization IC50” value was greater than 10 µg/mL.

Each binder was assayed against SARS-CoV-2 early D614G spike pseudovirus in the same assay as above.
Description: as §1
B1 was tested, and the “pseudovirus neutralization IC50” value was greater than 10 µg/mL.
In the case of B2, the “pseudovirus neutralization IC50” value is reported as 0.343 µg/mL.
B3 was tested, and the “pseudovirus neutralization IC50” value was 1.33 µg/mL.
With B4 the “pseudovirus neutralization IC50” value was 0.00572 µg/mL.
For B5, the “pseudovirus neutralization IC50” value was greater than 10 µg/mL.
B6 was tested, and the “pseudovirus neutralization IC50” value was 0.0918 µg/mL.
